{"source": "ChEMBL document CHEMBL6087416", "about": "“Discovery of novel fused-heterocycle-bearing diarypyrimidine derivatives as HIV-1 potent NNRTIs targeting tolerant region I for enhanced antiviral activity and resistance profile” (Eur J Med Chem, 2025)", "target": "Human immunodeficiency virus type 1 reverse transcriptase (Human immunodeficiency virus 1, UniProt Q72547)", "experiment": "Inhibition of wild type HIV-1 Reverse transcriptase incubated for 1 hrs by ELISA analysis"}
{"smiles": "Cc1cc(C#N)cc(C)c1Oc1nc(Nc2ccc(C#N)cc2)nc(N)c1Br", "note": "[ETRAVIRINE]", "values": [{"measurement": "IC50", "result": 0.03, "unit": "µM"}]}
